The exact form of at least one protein or probe is not confirmed. At least one verdict rests on a figure or table, not on a statement of the authors. Protein sequences can lack the tags named with them.
Legend:
[1] = biological target: T1, DzrR25416 (Burkholderia cepacia ATCC 25416) (UniProt A0AAX2RWE4); assay: DNase I footprinting; conditions: footprinting: about 400 ng probe, 1 uM protein, 40 ul, 25 C 30 min, salt and pH not given, recombinant protein, probe letters rebuilt from the primers and the genome
T1 sequence (looked up, limits assumed): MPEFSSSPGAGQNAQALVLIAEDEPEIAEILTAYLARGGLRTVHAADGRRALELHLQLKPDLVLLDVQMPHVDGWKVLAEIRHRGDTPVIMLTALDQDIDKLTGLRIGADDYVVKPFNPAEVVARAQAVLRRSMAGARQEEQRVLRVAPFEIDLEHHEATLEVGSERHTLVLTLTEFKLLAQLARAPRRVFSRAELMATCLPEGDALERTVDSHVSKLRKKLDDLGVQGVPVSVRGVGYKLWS

[2] = biological target: T1, DzrR25416 (Burkholderia cepacia ATCC 25416); assay: EMSA; conditions: EMSA: LightShift Chemiluminescent EMSA Kit, 20 ul, 20 fmol probe, 28 C 20 min, 6% native PAGE, recombinant protein

## AGCAATGGGCATGGATTGCGTATGAACAGTCATTGGTCAGCTCATGATAAAAAATGCGGTTCTCCATCATATCTCCATATTTCTCCAACGGAAACCGCACACAGAAAATGCACACTCTCTCAGTCTGGCCTTACTATGGTCGGTAAATAGGGATTACAACGTCATATGAATACTAAGAAATCGCATCAATATCCGATCGCCTGCATGTTACCGGCCTGTCGG (double strand) [PdesAB]
[1]; 1 uM DzrR25416
  binding result: binds

## TGGAGAAATATGGAGATATGATGGAGAACCGCATTTT (double strand) [PdesAB(37)]
[2]; label: 5' biotin on strand 1
  binding result: binds

## TCATGGGAACGCGCGAAGGTTCCCGGTTATGGGAGCACGCGCTCCGGATGTAAAGCGCCGACACCGCCGCCGCATCGCCGTTCCGCGATTCTTTCGCCGCCTCCATCAAACCTCCATCTTTCCGCACAAAAAACTCCATCGGGCACACGCACACTGCGAACCGAAAATGCGGGCCATCGGGTGCCTGCGTCCCATGGAGTCCACATGAAGAATCAGAAACGA (double strand) [PdesB25416]
[2]; probe letters rebuilt from the primers and the genome
  binding result: binds
[1]; 1 uM DzrR25416, dzrR box
  binding result: binds
